A mixed list of measured activities; the numbers were collected in NIAID ChemDB.

Shared fields: growth or infection tests; organism: Herpes simplex virus 1

a–b is a range or a potency band. Conditions beyond the fields shown may differ between rows. ECn is the concentration giving n% inhibition of infection, replication or growth. An empty or dashed field is not shown.

structure | cell line | strain or isolate | endpoint | method | value
COc1ccc2sc3c(c2c1)SCCNC3=O |  |  | EC50 | virus yield | 0.35 µM
Nc1nccc2c1nnn2[C@@H]1O[C@H](CO)[C@@H](O)[C@H]1O | VERO |  | EC50 | plaque count | >398 µM
Cc1ccn2c(C3OCCS3)cnc2c1 | E6SM | VMW 1837 (TK+/TK-) | EC50 |  | >1000 µM
O=C(c1ccncc1)n1c(-c2cccc([N+](=O)[O-])c2)nc2ccccc21 |  | KOS | EC50 |  | >100 µg/mL
O=c1[nH]c(=O)n(C2CC(O)C(CO)O2)cc1CCCCl | PRK | KOS | EC50 | cytopathic effect | 0.2 µg/mL
CC[C@@H](C(C)C)[C@@H](O)[C@H](O)[C@@H](C)[C@H]1CC[C@H]2[C@@H]3CC(=O)[C@@]4(O)C[C@@H](Br)CC[C@]4(C)[C@H]3CC[C@]12C | VERO | B2006 (TK-) | EC50 | plaque count | 12.9 µM
O=C(c1ccncc1)n1c(-c2ccc(O)cc2)nc2ccccc21 |  | KOS | EC50 |  | >4 µg/mL
Cc1cn([C@@H]2O[C@H](CO)[C@H]2CO)c(=O)[nH]c1=O | HFF | SC16 | EC50 | plaque count | 0.03 µg/mL
Nc1nccc2c1nnn2[C@H]1CC[C@@H](CO)O1 | VERO |  | EC50 | plaque count | >387 µM
Nc1nc2c(ncn2COC(CO)CO)c(=O)[nH]1 | HEP-2 |  | EC50 | cytopathic effect | <0.01 µg/mL
Cc1ccn2c(C(SCCc3ccccc3)SCCc3ccccc3)cnc2c1 | E6SM | B2006 (TK-) | EC50 |  | >1000 µM
CCSCc1c(Cl)nc2cc(Cl)c(Cl)cn12 | BSC-1 | KOS | EC50 | ELISA | >100 µM
Nc1nccc2nn([C@@H]3O[C@H](CO)[C@@H](O)[C@H]3O)nc12 | VERO |  | EC50 | plaque count | >398 µM
Nc1nc2c(ncn2CC[C@H](O)CO)c(=O)[nH]1 | VERO | C915 TK- | EC50 | plaque count | 300 µM
O=C(O)c1ccccc1-c1nc2ccccc2n1C(=O)c1ccccc1Br |  | KOS | EC50 |  | >100 µg/mL
COC(c1cn([C@H]2C[C@H](O)[C@@H](CO)O2)c(=O)[nH]c1=O)C(Cl)Cl | HFF | E-377 | EC50 | cytopathic effect | 22.9 µM
OCCCOCc1c(Cl)nc2cc(Cl)c(Cl)cn12 | BSC-1 | KOS | EC50 | ELISA | >100 µM
O=c1[nH]c(=O)n([C@H]2C[C@H](O)[C@@H](CO)O2)cc1C(O)C(Br)Br | HFF | E-377 | EC50 | cytopathic effect | 3.9 µM
Nc1ncnc2c1ncn2[C@@H]1O[C@H](CO)[C@@H](O)[C@@H]1O | RK-13 | 76 | EC50 | plaque count | 30 µM
Nc1nc(=O)c(/C=C/Br)cn1[C@H]1C[C@H](O)[C@@H](CO)O1 | PRK | F | EC50 | cytopathic effect | 70 µg/mL
Cn1c2c(c(=O)n(C)c1=O)S[C@@H]1[C@H](O2)O[C@H](COc2ccccc2)[C@@H](OCc2ccccc2)[C@@H]1OCc1ccccc1 | VERO |  | EC90 |  | >100 µM
CC[C@@H](C(C)C)[C@@H](O)[C@H](O)[C@@H](C)[C@H]1CC[C@H]2[C@@H]3CC(=O)[C@@]4(O)C[C@@H](OC(C)=O)CC[C@]4(C)[C@H]3CC[C@]12C | VERO | F | EC50 | plaque count | 57.6 µM
Nc1nc2c(ncn2COCCO)c(=O)[nH]1 | VERO |  | EC50 |  | 0.08 µM
Nc1nccc2c1nnn2[C@H]1C[C@H](O)[C@@H](CO)O1 | VERO |  | EC50 | plaque count | >396 µM
Nc1nc2c(ncn2COCCO)c(=O)[nH]1 | PRK | F | EC50 | cytopathic effect | 0.04 µg/mL
Cc1cn([C@H]2CC[C@@H](CO)O2)c(=S)[nH]c1=O |  | F | EC50 |  | 0.55 µg/mL
Nc1nc2c(ncn2COC(CO)CO)c(=O)[nH]1 |  | 03-2787 | EC50 | PCR | 0.2 µM
O=c1[nH]c(=O)n([C@H]2C[C@H](O)[C@@H](CO)O2)cc1/C=C/Br | 3T6 | 511 | EC50 | plaque count | 0.05 µg/mL
Nc1nc2c(ncn2CC(CO)OCP(=O)(O)O)c(=O)[nH]1 | WI-38 | KOS | EC50 | plaque count | 1.6 µM
N#Cc1c(-c2ccc(Cl)cc2)nc(SCCCc2ccccc2)[nH]c1=O | VERO | McIntyre | EC50 | plaque count | >20 µM
CCc1cn([C@H]2C[C@H](O)[C@@H](CO)O2)c(=O)[nH]c1=O | PRK | McIntyre | EC50 | cytopathic effect | 1 µg/mL
NC1=NC2C(C=CN2CC(CO)CCO)C(=O)N1 | VERO |  | EC50 | cytopathic effect | 0.01–0.1 µM
Nc1nc2c(ncn2CC[C@@H](O)CO)c(=O)[nH]1 | HEL | C42 | EC50 | plaque count | 0.2 µM
CCCN(CCC)S(=O)(=O)c1cccc(Nc2nc(Nc3cccc(S(=O)(=O)N(CCC)CCC)c3)nc(Nc3ccc(Nc4ccc(-c5ccc(Nc6ccc(Nc7nc(Nc8cccc(S(=O)(=O)N(CCC)CCC)c8)nc(Nc8cccc(S(=O)(=O)N(CCC)CCC)c8)n7)cc6S(=O)(=O)[O-])cc5S(=O)(=O)O)c(S(=O)(=O)O)c4)c(S(=O)(=O)[O-])c3)n2)c1 | VERO | Patton | EC50 | ELISA | >25 µM
O=C(c1ccncc1)n1c(-c2ccc(Cl)cc2)nc2ccccc21 |  | KOS | EC50 |  | >20 µg/mL
OC[C@H]1O[C@@H](n2nnc3ccnc(Cl)c32)[C@H](O)[C@@H]1O | VERO |  | EC50 | plaque count | >370 µM
Clc1cc2nc(Cl)c(CSCc3ccccc3)n2cc1Cl | BSC-1 | KOS | EC50 | ELISA | >100 µM
N#Cc1c(C2CCCCC2)nc(SCc2cccc([N+](=O)[O-])c2)[nH]c1=O | VERO | McIntyre | EC50 | plaque count | >20 µM
O=c1[nH]c(=O)n([C@H]2C[C@H](O)[C@@H](CO)O2)cc1I | PRK | KOS | EC50 | cytopathic effect | <0.2 µg/mL
COc1ccccc1CNC(=O)C1=Cc2ccncc2CC1 | HFF | McKrae | EC50 | plaque count | 15.5 µM
Cn1c2c(c(=O)n(C)c1=O)S[C@H]1[C@@H](O2)O[C@H](COc2ccccc2)[C@@H](OCc2ccccc2)[C@@H]1OCc1ccccc1 | VERO |  | EC50 |  | >100 µM
OC[C@H]1O[C@@H](n2nc3ccnc(Cl)c3n2)[C@H](O)[C@@H]1O | VERO |  | EC50 | plaque count | >398 µM
COc1ccccc1-c1nc2ccccc2n1C(=O)c1ccc([N+](=O)[O-])cc1 |  | KOS | EC50 |  | >100 µg/mL
Cc1cccn2c(C3OCCS3)cnc12 | E6SM | VMW 1837 (TK+/TK-) | EC50 |  | >1000 µM
OC[C@H]1O[C@@H](n2nnc3c(Cl)nccc32)[C@H](O)[C@@H]1O | VERO |  | EC50 | plaque count | >370 µM
Nc1nc2c(ncn2COCCO)c(=O)[nH]1 | VERO | TK- | EC50 | plaque count | >40 µg/mL
Cc1ccn2c(C3SCCS3)cnc2c1 | E6SM | KOS | EC50 |  | >1000 µM
O=c1cc(-c2ccc(-c3ccccc3)cc2)oc2ccccc12 | VERO | A4-3 | EC50 |  | 15 µg/mL
O=c1[nH]c(=O)n([C@H]2C[C@H](O)[C@@H](CO)O2)cc1C(O)C(Cl)Cl | HFF | E-377 | EC50 | cytopathic effect | >73.5 µM
OCCOCc1c(Cl)nc2cc(Cl)c(Cl)cn12 | BSC-1 | KOS | EC50 | ELISA | >100 µM
Cc1cn([C@H]2C[C@H](O)[C@@H](CO)O2)c(=O)nc1N | HeLa |  | EC90 | virus yield | 32 µM
Clc1cc2nc(Cl)c(COCc3ccccc3)n2cc1Cl | BSC-1 | KOS | EC50 | ELISA | >100 µM
CC1=C[C@H](n2ccc(N)nc2=O)C[C@@]1(CO)c1ccccc1 | CCL-81 |  | EC50 | cytopathic effect | >100 µg/mL
Nc1nc(=O)n([C@@H]2O[C@H](CO)[C@@H](O)[C@@H]2F)cc1I | HEP-2 |  | EC50 | cytopathic effect | <0.01 µg/mL
Nc1nc(=O)n(C2CC(O)C(CO)O2)cc1CCCl | PRK | McIntyre | EC50 | cytopathic effect | 0.7 µg/mL
O=c1[nH]c(=O)n([C@@H]2O[C@H](CO)[C@@H](O)[C@@H]2F)cc1I | PRK | KOS | EC50 | cytopathic effect | <0.02 µg/mL
CC[C@@H](C(C)C)[C@@H](O)[C@H](O)[C@@H](C)[C@H]1CC[C@H]2[C@@H]3CC(=O)[C@H]4C[C@@H](Br)CC[C@]4(C)[C@H]3CC[C@]12C | VERO | B2006 (TK-) | EC50 | plaque count | 47.6 µM
O=c1[nH]c(=O)n([C@H]2C[C@H](O)[C@@H](CO)O2)cc1C(O)C(Br)I | HFF | E-377 | EC50 | cytopathic effect | 0.7 µM
CC[C@@H](C(C)C)[C@H](O)[C@@H](O)[C@@H](C)[C@H]1CC[C@H]2[C@@H]3CC(=O)[C@@]4(O)C[C@H](O)[C@H](O)C[C@]4(C)[C@H]3CC[C@]12C | VERO | F | EC50 | plaque count | 161.6 µM
OC[C@H]1O[C@@H](n2nnc3c(Cl)nccc32)C[C@@H]1O | VERO |  | EC50 | plaque count | >368 µM
COc1cc(OC)c(NC(=S)Nc2ccc(NC(=O)c3ccccc3F)cc2Cl)cc1Cl | HFF | Patton | EC50 | ELISA | 0.2 µg/mL
Nc1nc2c(ncn2[C@H]2C=C[C@@H](CO)CC2)c(=O)[nH]1 | VERO |  | EC50 | cytopathic effect | 0.1–1 µM
CC(=O)OC[C@H]1O[C@@H]2Oc3c(c(=O)n(C)c(=O)n3C)S[C@@H]2[C@@H](OC(C)=O)[C@H]1OC(C)=O | VERO |  | EC90 |  | >100 µM
CC(C)Oc1ccccc1CNC(=O)c1ccc2cnccc2n1 | HFF | McKrae | EC50 | plaque count | 1.1 µM
CC(=O)O[C@H]1[C@@H](OC(C)=O)[C@@H](CO[Si](c2ccccc2)(c2ccccc2)C(C)(C)C)O[C@@H](O[C@H]2[C@H](OC(C)=O)[C@H]3Sc4c(n(C)c(=O)n(C)c4=O)O[C@H]3O[C@@H]2CO[Si](c2ccccc2)(c2ccccc2)C(C)(C)C)[C@@H]1OC(C)=O | VERO |  | EC90 |  | >100 µM
CC[C@@H](C(C)C)[C@H](O)[C@@H](O)[C@@H](C)[C@H]1CC[C@H]2[C@@H]3CC(=O)[C@@]4(O)C[C@@H](OC(C)=O)CC[C@]4(C)[C@H]3CC[C@]12C | VERO | B2006 (TK-) | EC50 | plaque count | 173.5 µM
O=c1[nH]c(=O)n([C@H]2C[C@H](O)[C@@H](CO)O2)cc1F | HeLa |  | EC90 | virus yield | >250 µM
CC[C@@H](C(C)C)[C@H](O)[C@@H](O)[C@@H](C)[C@H]1CC[C@H]2[C@@H]3CC(=O)[C@H]4C[C@@H](OC(C)=O)CC[C@]4(C)[C@H]3CC[C@]12C | VERO | F | EC50 | plaque count | >39.6 µM
COC(c1cn([C@H]2C[C@H](O)[C@@H](CO)O2)c(=O)[nH]c1=O)C(Br)Br | HFF | E-377 | EC50 | cytopathic effect | >56.3 µM
Nc1ccn([C@H]2C[C@H](O)[C@@H](CO)O2)c(=O)n1 | HeLa |  | EC90 | virus yield | 26 µM
O=C(c1ccc([N+](=O)[O-])cc1)n1c(-c2ccccc2Cl)nc2ccccc21 |  | KOS | EC50 |  | >100 µg/mL
CC1=CC(CO)(CO)C[C@H]1n1ccc(N)nc1=O | CCL-81 |  | EC50 | cytopathic effect | >100 µg/mL
Nc1nc2c(ncn2CCC(CO)CO)c(=O)[nH]1 | VERO |  | EC50 | cytopathic effect | 0.1–1 µM

Repeating the final 11 entries:

structure | cell line | strain or isolate | endpoint | method | value
CC(=O)OC[C@H]1O[C@@H]2Oc3c(c(=O)n(C)c(=O)n3C)S[C@@H]2[C@@H](OC(C)=O)[C@H]1OC(C)=O | VERO |  | EC90 |  | >100 µM
CC(C)Oc1ccccc1CNC(=O)c1ccc2cnccc2n1 | HFF | McKrae | EC50 | plaque count | 1.1 µM
CC(=O)O[C@H]1[C@@H](OC(C)=O)[C@@H](CO[Si](c2ccccc2)(c2ccccc2)C(C)(C)C)O[C@@H](O[C@H]2[C@H](OC(C)=O)[C@H]3Sc4c(n(C)c(=O)n(C)c4=O)O[C@H]3O[C@@H]2CO[Si](c2ccccc2)(c2ccccc2)C(C)(C)C)[C@@H]1OC(C)=O | VERO |  | EC90 |  | >100 µM
CC[C@@H](C(C)C)[C@H](O)[C@@H](O)[C@@H](C)[C@H]1CC[C@H]2[C@@H]3CC(=O)[C@@]4(O)C[C@@H](OC(C)=O)CC[C@]4(C)[C@H]3CC[C@]12C | VERO | B2006 (TK-) | EC50 | plaque count | 173.5 µM
O=c1[nH]c(=O)n([C@H]2C[C@H](O)[C@@H](CO)O2)cc1F | HeLa |  | EC90 | virus yield | >250 µM
CC[C@@H](C(C)C)[C@H](O)[C@@H](O)[C@@H](C)[C@H]1CC[C@H]2[C@@H]3CC(=O)[C@H]4C[C@@H](OC(C)=O)CC[C@]4(C)[C@H]3CC[C@]12C | VERO | F | EC50 | plaque count | >39.6 µM
COC(c1cn([C@H]2C[C@H](O)[C@@H](CO)O2)c(=O)[nH]c1=O)C(Br)Br | HFF | E-377 | EC50 | cytopathic effect | >56.3 µM
Nc1ccn([C@H]2C[C@H](O)[C@@H](CO)O2)c(=O)n1 | HeLa |  | EC90 | virus yield | 26 µM
O=C(c1ccc([N+](=O)[O-])cc1)n1c(-c2ccccc2Cl)nc2ccccc21 |  | KOS | EC50 |  | >100 µg/mL
CC1=CC(CO)(CO)C[C@H]1n1ccc(N)nc1=O | CCL-81 |  | EC50 | cytopathic effect | >100 µg/mL
Nc1nc2c(ncn2CCC(CO)CO)c(=O)[nH]1 | VERO |  | EC50 | cytopathic effect | 0.1–1 µM